Columns and labels:
[1] = test system: Herpes Simplex Virus Protease; assay: Inhibition of Herpes Simplex Virus Protease; assay type: biochemical; conditions: compound concentration 200 μmolar
[2] = target: HIV protease (Human immunodeficiency virus type 1 group M subtype B, UniProt P04585); assay: Inhibition of HIV protease; assay type: biochemical; conditions: compound concentration 99 μmolar

SMILES: O=P1(Cl)N(Cc2ccccc2)CC=CCN1Cc1ccccc1
- inhibition of the protease [1]: 44.7%
- inhibition of the protease [2]: 36%

From patent publication US6420586B1 (priority 2000, dated 2002)
